Results as given in patent US7070991.
Values joined by “and” are separate entries in the source; they are usually repeats but may differ in a detail not shown here. Equal entries are not always repeated.

Molecular target: HIV-1 (concentrated virus preparation / 100 TCID50 inoculum) (HIV-1)
Assay: cell-based or functional assay

Q: For “Soluble CD4 (from UniProt P01730 26-396) (receptor)”, which concentration required to prevent 50% of the cultures from becoming infected by HIV is on record?
A: Its concentration required to prevent 50% of the cultures from becoming infected by HIV is 10 µg/mL and 25 µg/mL.
